A mixed list of measured activities; the numbers were collected in NIAID ChemDB.

Common to all: target-level tests; species: HIV-1; target: Reverse transcriptase

ICn: concentration for n% inhibition. Conditions beyond the fields shown may differ between rows. Two numbers with a dash give a range or band. Blank or dashed fields: not listed here.

compound	read by	read-out	changes	strain	value
CC(C)(C)c1ccc(-n2nnnc2SCC(=O)Nc2ccc(C#CC3(O)CCC3)cc2Cl)c(Cl)c1	PicoGreen / fluorescence	IC50	RT-K103 Y181C		<1 µM
CCN1c2ncc(CCOc3ccc(C(=O)O)c4c3CCCC4)cc2C(=O)N(C)c2ccc(OC)nc21	nucleotide incorporation / radiometric	IC50		WT	<0.1 µM
CCN1c2ncc(CCOc3ccc(-c4cnc(C)c(C)c4)cc3C)cc2C(=O)N(C)c2cccnc21	nucleotide incorporation / radiometric	IC50		IIIB	<0.05 µM
CCN1c2ncc(CCOc3ccc(CCC(=O)O)c4ccccc34)cc2C(=O)Nc2c(C)cc(F)nc21	nucleotide incorporation / radiometric	IC50	RT-K103N Y181C		0.1–1 µM
CC(C)(C#Cc1ccc(NC(=O)CSc2nnc(C3CC3)n2-c2ccc(C3CC3)cc2Cl)c(Cl)c1)C(=O)O	PicoGreen / fluorescence	IC50		WT	<1 µM
CCN1c2ncc(CCOc3ccc(S(=O)(=O)NCC(=O)O)c4ccccc34)cc2C(=O)N(C)c2cccnc21	nucleotide incorporation / radiometric	IC50		WT	<0.1 µM
Cc1nnc2c3ccccc3c(N3CCc4cccnc4C3)nn12	RT activity / fluorescence	IC90		98US_MSC5016	3.11 µM
CCN1c2ncc(CCOc3ccc4cc(C(=O)NC(C)(C)C(=O)O)ccc4c3)cc2C(=O)N(C)c2cccnc21	nucleotide incorporation / radiometric	IC50	RT-K103N Y181C		0.1–1 µM
CCN1c2ncc(CCOc3ccc(-c4cncnc4)cc3)cc2C(=O)N(C)c2cccnc21	nucleotide incorporation / radiometric	IC50		IIIB	<0.05 µM
CN(O)C(=O)COC(C)(C)C#Cc1ccc(NC(=O)CSc2nnnn2-c2ccc(C(C)(C)C)cc2Cl)c(Cl)c1	PicoGreen / fluorescence	IC50		WT	<1 µM
CCN1c2ncc(CCOc3ccc(-c4ccncc4)cc3)cc2C(=O)N(C)c2cccnc21	nucleotide incorporation / radiometric	IC50		IIIB	<0.05 µM
CC(C)(C#Cc1ccc(NC(=O)CSc2nnnn2-c2ccc(C(C)(C)C)cc2Cl)c(Cl)c1)OCC(=O)Nc1ccncc1	PicoGreen / fluorescence	IC50		WT	<1 µM
Cc1nnc2c3ccccc3c(N3CCc4cc(O)c(O)cc4C3)nn12	RT activity / fluorescence	IC90		IIIB	2.86 µM
CC(C)(C#Cc1ccc(NC(=O)CSc2nnnn2-c2ccc(C3CC3)cc2Cl)c(Cl)c1F)NC(=O)c1cc[n+]([O-])cc1	PicoGreen / fluorescence	IC50		WT	<1 µM
CCc1cc(NCc2nc3c(C)ccc(C)c3o2)c(=O)[nH]c1C	nucleotide incorporation	IC50	RT-K103N Y181C Y188C		>282 µM
FC(F)(F)c1nnc2c3ccccc3c(N3CCc4ccccc4C3)nn12	RT activity / fluorescence	IC50		98US_MSC5016	0.85 µM
O=C(CSc1nnnn1-c1ccc(C2CC2)cc1Cl)Nc1ccc(-c2ccc(OCCN3CCCCC3)cc2)cc1Cl	PicoGreen / fluorescence	IC50	RT-K103 Y181C		<1 µM
CCN1c2ncc(CCOc3ccc(C(=O)O)c4c3CCC4)cc2C(=O)N(C)c2ccc(Cl)nc21	nucleotide incorporation / radiometric	IC50	RT-V106A		0.1–1 µM
CCN1c2ncc(CCOc3ccc(-c4ccc(CC(=O)O)c(F)c4)cc3C)cc2C(=O)N(C)c2cccnc21	nucleotide incorporation / radiometric	IC50	RT-K103N Y181C	IIIB	<0.05 µM
CCN1c2ncc(CCOc3ccc(/C=C(\C)C(=O)O)c4ccccc34)cc2C(=O)Nc2c(C)ccnc21	nucleotide incorporation / radiometric	IC50		WT	<0.1 µM
CCN1c2ncc(CCOc3ccc(-c4ccc(CCC(=O)O)o4)cc3C)cc2C(=O)N(C)c2cccnc21	nucleotide incorporation / radiometric	IC50		IIIB	<0.05 µM
c1ccc2c(c1)CN(c1nn3c(C4CC4)nnc3c3ccccc13)C2	RT activity / fluorescence	IC50		KER2008	>100 µM
O=C(O)Cc1ccc(-c2ccc(NC(=O)CSc3nnnn3-c3cc4ccccc4cc3Cl)c(Cl)c2)cc1	PicoGreen / fluorescence	IC50	RT-K103 Y181C		<1 µM
CCN1c2ncc(CCOc3ccc(NC(=O)CC(C)(C)C(=O)O)cc3C)cc2C(=O)N(C)c2cccnc21	nucleotide incorporation / radiometric	IC50		IIIB	<0.05 µM
CC(C)(C)c1ccc(-n2nnnc2SCC(=O)Nc2ccc(C(=O)Nc3ccc(/C=C/C(=O)O)cc3)cc2Cl)c(Cl)c1	PicoGreen / fluorescence	IC50	RT-K103 Y181C		<1 µM
CCN1c2ncc(CCOc3ccc(C(=O)NNC)cc3C)cc2C(=O)N(C)c2cccnc21	nucleotide incorporation / radiometric	IC50		IIIB	<0.05 µM
CC(C)(C#Cc1ccc(NC(=O)CSc2nnnn2-c2ccc(C3CC3)cc2Cl)c(Cl)c1F)OCCN1CCCC1	PicoGreen / fluorescence	IC50		WT	<1 µM
CCN1c2ncc(CCOc3ccc(-c4ccncc4)cc3C)cc2C(=O)N(C)c2cccnc21	nucleotide incorporation / radiometric	IC50		IIIB	<0.05 µM